Measured values from several laboratories, pooled; numbers as filed in NIAID ChemDB.

All rows: whole-cell or culture tests; organism: Staphylococcus aureus

Neighbouring rows are from separate reports.

structure,endpoint,strain,result
CC(C)CC(=O)NC[C@H]1CN(c2ccc3c(c2)-n2cccc2COC3)C(=O)O1,MIC,ATCC 33591 (MRSA),16 µg/mL
CS(=O)(=O)N[C@H]1CCN(c2ccc(N3C[C@H](CNc4ccon4)OC3=O)cc2F)C1,MIC,004 (methicillin quinolone-resistant),2 µg/mL
CC[C@H]1OC(=O)[C@H](C)C(=O)[C@H](C)[C@@H](O[C@@H]2O[C@H](C)C[C@H](N(C)C)[C@H]2O)[C@@]2(C)C[C@@H](C)C(=NC(C)=O)[C@H](C)[C@@H](OC/C(=N\OCCCc3ccccc3)CO2)[C@]1(C)O,MIC,25923 (erythromycin-susceptible),0.5 µg/mL
Cc1c(N)c(F)cc2c(=O)c(C(=O)O)cn(-c3cc(N)c(F)cc3F)c12,Mean MIC,27 isolates (methicillin-resistant),0.012 µg/mL
CC(O)C(=O)N1CC=C(c2ccc(N3C[C@H](COc4cnsn4)OC3=O)cc2F)CC1,MIC,078 (oxford),0.25 µg/mL
CCCCCCCCCCCCOC[N+](C)(C)CCCCCCCC,MIC,ATCC33592,12.8 µM
CCN(CC)CCCCC(C)Nc1cc2c(cc1F)c(=O)c(C(=O)O)cn2C1CC1,MIC,ATCC 6538P,>100 µg/mL
CC[C@H]1OC(=O)[C@H](C)C(=O)[C@H](C)[C@@H](O[C@@H]2O[C@H](C)C[C@H](N(C)C)[C@H]2O)[C@@]2(C)C[C@@H](C)C(=NC(C)=O)[C@H](C)[C@@H](OC/C(=N\OCC#Cc3ncccn3)CO2)[C@]1(C)O,MIC,25923 (erythromycin-susceptible),0.25 µg/mL
O=C(NC[C@H]1CN(c2ccc3c(c2)-n2cccc2COC3)C(=O)O1)OCc1ccccc1,MIC,ATCC 49951 (SMITH),>32 µg/mL
CCCCCCCCCCCC[N+](C)(C)COCC(CC)CC,MIC,ATCC33592,2.75 µM
O=C1O[C@@H](COc2ccon2)CN1c1ccc(N2CC(O)C2)c(F)c1,MIC,004 (methicillin quinolone-resistant),16 µg/mL
O=CNC[C@H]1CN(c2ccc3c(c2)-n2cccc2COC3)C(=O)O1,MIC,ATCC 29213 (MSSA),8 µg/mL
CO/N=C1\CN(c2nc3c(cc2F)c(=O)c(C(=O)O)cn3C2CC2)CC1CN,MIC,KU2245,2 µg/mL
CCCCCCCCCCCC[N+](C)(C)COC(CCC)CCC,MBC,ATCC33592,6.61 µM
NCCCCCCCCCNc1cc2c(cc1F)c(=O)c(C(=O)O)cn2C1CC1,MIC,ATCC 6538P,>100 µg/mL
CNc1c(F)cc2c(=O)c(C(=O)O)cn(-c3cc(N)c(F)cc3F)c2c1C,MIC,SMITH,<0.004 µg/mL
COc1ccc(-c2ccc(C3=CC(CNC(C)=O)OC3=O)cc2)ccc1=O,MIC,UC9218,2 µg/mL
CN(C)CCCN(C)c1cc2c(cc1F)c(=O)c(C(=O)O)cn2C1CC1,MIC,ATCC 5278 (methicillin-resistant),1.56 µg/mL
COc1ccc(-c2ccc(N3CC(CNC(C)=O)CC3=O)cc2)ccc1=O,MIC,UC9213,>64 µg/mL
CCCCCCCCCCCC[N+](C)(C)COCCCC,MBC,ATCC33592,4.46 µM
Cc1cccnc1OC[C@H]1CN(c2ccc(C3=CCOCC3)c(F)c2)C(=O)O1,MIC,004 (methicillin quinolone-resistant),4 µg/mL
CC[C@H]1OC(=O)[C@H](C)C(=O)[C@H](C)[C@@H](O[C@@H]2O[C@H](C)C[C@H](N(C)C)[C@H]2O)[C@](C)(OC)C[C@@H](C)C(=O)[C@H](C)[C@H]2N(CCCCn3cnc(-c4cccnc4)c3)C(=O)O[C@]12C,MIC,33591 (erythromycin methicillin-resistant),>64 µg/mL
N#Cc1cnn(-c2ccc(C3=NO[C@@H](CNC(=O)O)C3)cc2F)c1,MIC,UC9213,2 µg/mL
O=C1O[C@@H](COc2ccon2)CN1c1ccc(N2CC[C@H](O)C2)c(F)c1,MIC,004 (methicillin quinolone-resistant),4 µg/mL
O=C(O)c1cn(C2CC2)c2cc(NCCCNC3CCCCC3)c(F)cc2c1=O,MIC,ATCC 6538P,50 µg/mL
CC[C@H]1OC(=O)[C@H](C)C(=O)[C@H](C)[C@@H](O[C@@H]2O[C@H](C)C[C@H](N(C)C)[C@H]2O)[C@@]2(C)C[C@@H](C)C(=NC(C)=O)[C@H](C)C(OC/C(=N\OCc3ccccc3)CO2)[C@]1(C)O,MIC,27660 (erythromycin-resistant),0.13 µg/mL
CC(C)(O)CCCCNc1cc2c(cc1F)c(=O)c(C(=O)O)cn2C1CC1,MIC,ATCC 6538P,>100 µg/mL
O=C(NC[C@H]1CN(c2ccc3c(c2)-n2cccc2COC3)C(=O)O1)C1CC1,MIC,ATCC 29213 (MSSA),8 µg/mL
NCCCCNc1cc2c(cc1F)c(=O)c(C(=O)O)cn2C1CC1,MIC,ATCC 5278 (methicillin-resistant),>100 µg/mL
N#Cc1ccn(-c2ccc(N3C[C@H](COc4ccon4)OC3=O)cc2F)c1,MIC,122 (novobiocin-resistant),0.5 µg/mL
CCOC(=O)NC[C@H]1CN(c2ccc3c(c2)-n2cccc2COC3)C(=O)O1,MIC,ATCC 29213 (MSSA),16 µg/mL
O=C1O[C@@H](COc2ccncc2)CN1c1ccc(C2=CCOCC2)c(F)c1,MIC,004 (methicillin quinolone-resistant),8 µg/mL
O=C(O)NC[C@H]1CC(c2ccc(N3CCN(C(=O)CO)CC3)c(F)c2)=NO1,MIC,UC9218,4 µg/mL
O=C(C(O)Cn1cccn1)N1CC=C(c2c(F)cc(N3C[C@H](COc4ccon4)OC3=O)cc2F)CC1,MIC,004 (methicillin quinolone-resistant),1 µg/mL
CCOC(=S)NC[C@H]1CN(c2ccc3c(c2)-n2cccc2COC3)C(=O)O1,MIC,ATCC 29213 (MSSA),4 µg/mL
CCCCCCCCCCCC[N+](C)(C)COC1CCCCCCCCCCC1,MBC,ATCC33592,26.9 µM
Cc1c(NC2CC2)c(F)cc2c(=O)c(C(=O)O)cn(-c3cc(N)c(F)cc3F)c12,MIC,MR8736 (methicillin-resistant),8 µg/mL
CC(=O)NC[C@H]1CN(c2ccc3c(c2)-n2cccc2COC3)C(=O)O1,MIC,ATCC 33591 (MRSA),2 µg/mL
CC(N)CCCCNc1cc2c(cc1F)c(=O)c(C(=O)O)cn2C1CC1,MIC,ATCC 5278 (methicillin-resistant),>100 µg/mL
COC(=O)NC[C@H]1CN(c2ccc3c(c2)-n2cccc2COC3)C(=O)O1,MIC,ATCC 29213 (MSSA),4 µg/mL
Nc1ccc(OC[C@H]2CN(c3ccc(C4=CCOCC4)c(F)c3)C(=O)O2)cn1,MIC,078 (oxford),2 µg/mL

Again, the opening 3 rows:

structure | endpoint | strain | result
CC(C)CC(=O)NC[C@H]1CN(c2ccc3c(c2)-n2cccc2COC3)C(=O)O1 | MIC | ATCC 33591 (MRSA) | 16 µg/mL
CS(=O)(=O)N[C@H]1CCN(c2ccc(N3C[C@H](CNc4ccon4)OC3=O)cc2F)C1 | MIC | 004 (methicillin quinolone-resistant) | 2 µg/mL
CC[C@H]1OC(=O)[C@H](C)C(=O)[C@H](C)[C@@H](O[C@@H]2O[C@H](C)C[C@H](N(C)C)[C@H]2O)[C@@]2(C)C[C@@H](C)C(=NC(C)=O)[C@H](C)[C@@H](OC/C(=N\OCCCc3ccccc3)CO2)[C@]1(C)O | MIC | 25923 (erythromycin-susceptible) | 0.5 µg/mL